The molecules below were run on Hendra virus. Settings: ratio CC50 / IC50.
Format: cell-based

| Molecule | HeV TI (CellTiter-Glo) | HeV TI (alamarBlue) |
| --- | --- | --- |
| brilliant green | 6.00 | 1.11 |
| CN1C(=O)[C@]23CC4=CC=C[C@H](O)[C@H]4N2C(=O)[C@@]1(CO)SS3 [Gliotoxin, gliotoxin] | 8.44 | 2.78 |
| CN(C)c1ccc(C(=C2C=CC(=[N+](C)C)C=C2)c2ccc(N(C)C)cc2)cc1 [Gentian Violet, gentian violet] | 2.19 | 1.06 |
| NC(=O)c1ncn([C@@H]2O[C@H](CO)[C@@H](O)[C@H]2O)n1 [Ribavirin, ribavirin] | 66.82 |  |

The molecules below were run on Nipah virus. Settings: ratio CC50 / IC50.
Format: cell-based

| Molecule | NiV TI (CellTiter-Glo) | NiV TI (alamarBlue) |
| --- | --- | --- |
| brilliant green | 21.39 | 3.95 |
| CN1C(=O)[C@]23CC4=CC=C[C@H](O)[C@H]4N2C(=O)[C@@]1(CO)SS3 [Gliotoxin, gliotoxin] | 32.81 | 10.80 |
| CN(C)c1ccc(C(=C2C=CC(=[N+](C)C)C=C2)c2ccc(N(C)C)cc2)cc1 [Gentian Violet, gentian violet] | 11.16 | 5.39 |
| NC(=O)c1ncn([C@@H]2O[C@H](CO)[C@@H](O)[C@H]2O)n1 [Ribavirin, ribavirin] | 38.42 |  |

From publication PMC2781006 (Virology Journal, 2009)
